# Paper PMC3688583, “Eubacterial SpoVG Homologs Constitute a New Family of Site-Specific DNA-Binding Proteins”
# pKd: −log10 of the molar value. Construct, isoform or probe ends are uncertain for at least one entry. Where a protein sequence is shown, tags need not be part of it.
# Molecular target: T1, SpoVGSa (Staphylococcus aureus) (UniProt Q7A7B5)
# T1 sequence (looked up, limits assumed): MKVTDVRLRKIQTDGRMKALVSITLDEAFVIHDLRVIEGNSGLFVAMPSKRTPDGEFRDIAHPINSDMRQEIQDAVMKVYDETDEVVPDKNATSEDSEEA
# Assay: EMSA
# Settings: labeled cap probe; 50 mM Tris-HCl pH 7.5, 1 mM DTT, 150 nM EDTA, 50 ng/ml poly dI-dC, phosphatase and protease inhibitors; about 20 C; protein stocks in 50 mM Tris-HCl, 25 mM KCl; recombinant protein; protein details: 6xHis (pET101); label: 5' biotin as probe, unlabeled as competitor; probe letters rebuilt from the primers and the genome
sequence,measurement,value
TATTTACCTCCCTTAAAAATTTTCATTAAAATTGGTATTATATATATAGTATTTACATATTACATATCGTTTAAACAATTAATTACTTTTAAACCGCATTATTTTCGCCTTTTTATTTATATGAAATTAAAAATAATTATACTCTAAAGTAGTAATAGTTTGTGAAATGAGTATCAATCTTAATATTTTCTTTATTTAAAAAAATGATTGTCTAGTTTGTATCTCTCTGAAGATTTGGCAATAAATAAAAGCCGATAACCGTATAATGATTATCGACTTAAAGTTTATGTGGCATTTTTTACTTTTGTAATTTCAGGTGAGTTAGATGATTATTATCAGATAG (double strand) [cap5 5' non-coding DNA],pKd,6.50
